Publication PMC10241523 (The Journal of Venomous Animals and Toxins Including …, 2023)
Some compounds may have been tested in ways that are not shown here.

System: human NaV1.4 (hNaV1.4)
Assay: Whole-cell patch clamp, hNaV1.4 in HEK293 cells
Conditions: 10 μM, -10 mV from holding -120 mV, positive control 1 μM TTX

CC[C@H](C)[C@H](NC(=O)[C@@H]1CSSC[C@@H]2NC(=O)[C@H](Cc3ccc(O)cc3)NC(=O)[C@H]([C@@H](C)CC)NC(=O)[C@H](C(C)C)NC(=O)CNC(=O)[C@H](CC(C)C)NC(=O)[C@H](CC(C)C)NC(=O)[C@H](CO)NC(=O)[C@H](C)NC(=O)[C@@H]3CCCN3C(=O)[C@@H]3CSSC[C@H](NC(=O)[C@H]([C@@H](C)CC)NC(=O)[C@H](CC(C)C)NC(=O)CNC(=O)[C@H](CCC(=O)O)NC(=O)[C@H](CSSC[C@H](NC(=O)[C@@H](N)CC(=O)O)C(=O)N[C@@H](Cc4c[nH]cn4)C(=O)N[C@@H](CCC(=O)O)C(=O)N[C@@H](CCCNC(=N)N)C(=O)N[C@@H](Cc4c[nH]c5ccccc45)C(=O)N[C@@H](CC(=O)O)C(=O)N[C@@H](Cc4c[nH]c5ccccc45)C(=O)N3)NC2=O)C(=O)N[C@@H](Cc2ccccc2)C(=O)N[C@@H]([C@@H](C)CC)C(=O)N[C@@H](C)C(=O)N[C@@H](Cc2ccccc2)C(=O)N1)C(=O)O [Tx6.7]
effects on hNaV1.4 currents: no obvious effects
